A mixed list of measured activities; the numbers were collected in NIAID ChemDB.

Shared fields: growth or infection tests; organism: HIV-1

Blank or dashed fields: not listed here. ECn is the concentration giving n% inhibition of infection, replication or growth. a–b is a range or a potency band. Neighbouring rows are from separate reports.

compound,strain or isolate,read by,cell line,setting,mutations,measure,value
CN(C)C(=O)c1ccc(N2C(=O)C=CC3Nc4ccccc4C32)cc1,LAI,cytopathic effect / MTT,MT-4,-,-,EC50,>32 µM
C=CCN(C(=O)[C@H](Cc1cc(F)cc(F)c1)NC(=O)c1cc(F)c(F)cc1C(=O)N[C@@H](Cc1cc(F)cc(F)c1)C(=O)N(CC=C)c1ccc(OC)cc1)c1ccc(OC)cc1,NL4-3,luciferase,MT-2,-,-,EC50,7.24 µM
COC[C@@H](c1ccc(C(F)(F)F)cc1)N1CCN(C2(C)CCN(C(=O)c3c(C)ncnc3C)CC2)C[C@@H]1C,S,-,PBMC,-,G514V,EC50,0.00013 µM
C=C(c1ccccc1)c1c(C)c(=O)[nH]c(=O)n1COCc1ccccc1,IIIB,MTT,MT-4,-,Y181C,EC50,>133 µM
Cc1nc2ccc(Cl)cc2c(-c2ccc3c(c2)OCO3)c1C(OC(C)C)C(=O)O,-,luciferase / reporter gene,C8166,-,-,EC50,<20 µM
O=C(O)c1cc(-n2cccc2)ccc1Cl,92US657 R5 CLADE B,luciferase / cell fusion,PBMC/5.25M7,-,-,EC90,99.01 µM
COc1ccc(N(C)C(=O)[C@H](Cc2ccccc2)NC(=O)c2cc(C(=O)N[C@@H](Cc3ccccc3)C(=O)N(C)c3ccc(OC)cc3)[nH]n2)cc1,NL4-3,luciferase,MT-2,-,-,EC50,1.58 µM
Cc1nnc(C(=O)N[C@@]23CC[C@]4(C)C(CCC5[C@@]6(C)CC[C@H](OC(=O)CC(C)(C)CC(=O)O)C(C)(C)C6CC[C@]54C)C2=C(C(C)C)C(=O)C3)o1,IIIB,RT activity,MT-2,30% human serum,-,EC50,<0.199 µM
Cc1nc2ccc(Cl)cc2c(-c2ccc(Br)cc2)c1C(OC(C)C)C(=O)O,-,luciferase / reporter gene,C8166,-,-,EC50,<20 µM
CCN1c2ncc(CCOc3ccc(-c4ccccc4)cc3)cc2C(=O)N(C)c2cccnc21,IIIB,p24,C8166,-,-,EC50,<0.01 µM
C[C@H]1[C@H](O)[C@@H](C)/C=C/C=C/C=C/C=C/C=C/C=C/C=C/[C@H](O[C@@H]2O[C@H](C)[C@@H](O)[C@H](N)[C@@H]2O)C[C@@H]2O[C@](O)(C[C@@H](O)C[C@@H](O)CC[C@H](O)[C@@H](O)C[C@@H](O)CC(=O)O[C@H]1C)C[C@H](O)[C@H]2C(=O)O,92RW009 CLADE A X4/R5(SI),p24 / RT activity,PBMC,-,-,EC50,3.3 µM
Cc1c(C(C)(O)c2cccc3ccccc23)n(COCc2ccccc2)c(=O)[nH]c1=O,IIIB,MTT,MT-4,-,-,EC50,>41.78 µM
CCN1c2ncc(CCOc3ccc(C(=O)NCC(CC)(CC)C(=O)O)cc3C)cc2C(=O)N(C)c2cccnc21,IIIB,p24,C8166,-,-,EC50,<0.01 µM
CN(C)CCCCN1c2ccccc2C2C1C=C(C#N)C(=O)N2c1ccc([N+](=O)[O-])cc1,LAI,cytopathic effect / MTT,MT-4,-,-,EC50,<1 µM
Clc1ccc2nc(/C=C/c3ccco3)cc(Cl)c2c1,UG070,luminescence,TZM-bl,-,-,EC50,114 µM
CC1(C)c2nc(C(=O)NCc3ccc(F)cc3)c(O)c(=O)n2CCN1Cc1nnco1,-,p24,MT-4,-,-,EC95,<1 µM
O=C1Nc2ccc(Cl)cc2C(C#Cc2ccccn2)(C(F)(F)F)O1,-,-,-,-,RT-K103N,EC50,<0.064 µM
C[C@@H]1CCO[C@H]2Cn3cc(C(=O)NCc4ccc(F)cc4F)c(=O)c(O)c3C(=O)N12,IIIB,luminescence,H9,-,-,EC50,0.00051 µM
CN(C(=O)[C@H](Cc1ccccc1)NC(=O)CS(=O)(=O)N[C@@H](Cc1ccccc1)C(=O)N(C)c1ccc2scnc2c1)c1ccc2scnc2c1,NL4-3,luciferase,MT-2,-,-,EC50,0.32 µM
O=C(NCc1ccc(F)cc1)c1nc2n(c(=O)c1O)C(=O)N(Cc1ccccc1)CC2,-,p24,MT-4,-,-,EC95,<50 µM
Cc1nc(C2=CC3Nc4ccccc4C3N(c3ccc(-c4noc(C)n4)cc3)C2=O)no1,LAI,cytopathic effect / MTT,MT-4,-,-,EC50,>32 µM
Cc1nc2ccc(Br)cc2c(-c2ccc(Cl)cc2)c1C(OCCCn1cccc1)C(=O)O,-,luciferase / reporter gene,C8166,-,-,EC50,<20 µM
CC(C)=CCOC1(C(F)(F)F)OC(=O)Nc2ccc(F)cc21,-,-,-,-,-,EC50,<0.00298 µM
C[C@H]1CO[C@@H]2Cn3cc(C(=O)NCc4ccc(F)cc4F)c(=O)c(O)c3C(=O)N12,NL4-3,RT activity,CBMC,-,Y143R,EC50,0.00097 µM
Cn1c2ccccc2c2c1cc(C#N)c(=O)n2-c1ccc([N+](=O)[O-])cc1,B,cytopathic effect / MTT,MT-4,-,RT-K103N,EC50,0.03 µM
CC(C)=CCOC1(C(F)(F)F)OC(=O)Nc2ccc(Cl)cc21,-,-,-,-,-,EC50,<0.00268 µM
CC(C)=CCOc1cc(NC(=S)c2ccoc2C)ccc1Cl,Oxathiin carboxanilide-resistant RT L100I,cytopathic effect / XTT,CEM + CEM-SS,-,RT-L100I,EC50,0.5 µM
CC(C)C1=C2C3CCC4[C@@]5(C)CC[C@H](OC(=O)CC(C)(C)C(=O)O)C(C)(C)C5CC[C@@]4(C)[C@]3(C)CC[C@@]2(NC(=O)[C@H]2CCCN2C(=O)OC(C)(C)C)CC1=O,IIIB,RT activity,MT-2,30% human serum,-,EC50,<0.199 µM
O=C1Nc2ccc(Cl)cc2[C@@](/C=C/C2CC2)(C(F)(F)F)N1,-,-,-,-,RT-Y181C,EC90,<0.012 µM
CC1(C)c2nc(C(=O)NCc3ccc(F)cc3)c(O)c(=O)n2CCN1Cc1nn[nH]n1,-,p24,MT-4,-,-,EC50,<1 µM
CN1c2ccccc2C2C1C=C(Br)C(=O)N2c1ccc([N+](=O)[O-])cc1,LAI,cytopathic effect / MTT,MT-4,-,-,EC50,<1 µM
Cc1noc(CN2CCn3c(nc(C(=O)NCc4ccc(F)cc4)c(O)c3=O)C2(C)C)n1,-,p24,MT-4,-,-,EC95,<1 µM
Clc1cc(/C=C/c2ccccc2)nc2ccccc12,UG070,luminescence,TZM-bl,-,-,EC50,140 µM
COc1cc(-c2ccc(N=Nc3ccc4c(S(=O)(=O)O)cc(S(=O)(=O)O)c(N)c4c3O)c(OC)c2)ccc1N=Nc1ccc2c(S(=O)(=O)O)cc(S(=O)(=O)O)c(N)c2c1O,McK,cytopathic effect / XTT,CEM + CEM-SS,-,-,EC50,0.6 µM
CN(C(=O)[C@H](Cc1cc(F)cc(F)c1)NC(=O)c1cncc(C(=O)N[C@@H](Cc2cc(F)cc(F)c2)C(=O)N(C)c2ccc3scnc3c2)c1)c1ccc2scnc2c1,NL4-3,luciferase,MT-2,-,-,EC50,0.01 µM
COC(C(=O)O)c1c(C)nc2ccc(Cl)cc2c1-c1ccc(Cl)cc1,-,luciferase / reporter gene,C8166,-,-,EC50,<20 µM
CCC(=O)c1ccc(F)c([C@@H]2C[C@@H]2NC(=O)Nc2ccc(C#N)cn2)c1O,LAI,β-galactosidase / luminescence,TZM-bl,-,NNRTI-resistant (RT E138A),EC50,0.00132 µM
CC(C)C1=C2[C@H]3CC[C@@H]4[C@@]5(C)CC[C@H](OC(=O)CC(C)(C)C(=O)O)C(C)(C)[C@@H]5CC[C@@]4(C)[C@]3(C)CC[C@@]2(NC(=O)CCN2CCCCC2)CC1=O,IIIB,RT activity,MT-2,30% human serum,-,EC50,<0.199 µM
COc1cc(Br)ccc1/C=C/c1cc(Cl)c2cc(Cl)ccc2n1,UG070,luminescence,TZM-bl,-,-,EC50,8.56 µM
Cc1cc(-c2nc(-c3ccc(N4C(=O)C=CC5C4c4ccccc4N5C)cc3)no2)no1,LAI,cytopathic effect / MTT,MT-4,-,-,EC50,1–32 µM
Cc1ncccc1C(=O)N[C@@]12CC[C@]3(C)C(CC[C@@H]4[C@@]5(C)CC[C@H](OC(=O)CC(C)(C)C(=O)O)C(C)(C)[C@@H]5CC[C@]43C)C1=C(C(C)C)C(=O)C2,IIIB,RT activity,MT-2,30% human serum,-,EC50,<0.199 µM
Cc1cccc(C(C)c2c(C(C)C)c(=O)[nH]c(=O)n2COCc2ccccc2)c1,IIIB,MTT,MT-4,-,L100I,EC50,1.07 µM
COc1ccc(N(C)C(=O)[C@H](Cc2cc(F)cc(F)c2)NC(=O)NS(=O)(=O)N[C@@H](Cc2cc(F)cc(F)c2)C(=O)N(C)c2ccc(OC)nc2)cn1,NL4-3,luciferase,MT-2,-,-,EC50,0.04 µM
CCCc1cc(=O)oc2c3c(c4c(c12)OC(C)(C)CC4)O[C@@H](C)[C@H](C)[C@@H]3O,ADA,p24,MM + M/M,-,-,EC50,0.1 µM
CC(=O)N1CCc2nc(C(=O)NCc3ccc(F)cc3)c(O)c(=O)n2CC1,-,p24,MT-4,-,-,EC50,<50 µM
COc1ccnc2[nH]cc(C(=O)C(=O)N3CCN(C(=O)c4ccccc4)C[C@H]3C)c12,SF162,luciferase,TZM-bl,-,-,EC50,0.002 µM
CC(C)CN(C[C@@H](O)[C@H](Cc1ccccc1)NC(=O)O[C@H]1CO[C@H]2OCC[C@H]21)S(=O)(=O)c1ccc2c(c1)OCO2,NL4-3 (APV5),p24,MT-4,-,L10F/M461/I50V/A71V/I84V/L90M,EC50,0.032 µM
CCCc1cc(=O)oc2c3c(c4c(c12)OC(C)(C)CC4)O[C@H](C)[C@@H](C)C3=O,IIIB,cytopathic effect / XTT,CEM + CEM-SS,-,-,EC50,1 µM
CCCC(C(=O)O)c1c(C)nc2ccc(Cl)cc2c1-c1ccc(C)c(F)c1,-,luciferase / reporter gene,C8166,-,-,EC50,<20 µM
CC(C)C1=C2[C@H]3CC[C@@H]4[C@@]5(C)CC[C@H](OC(=O)CC(C)(C)C(=O)O)C(C)(C)[C@@H]5CC[C@@]4(C)[C@]3(C)CC[C@@]2(NC(=O)C2CCCCN2C)CC1=O,IIIB,RT activity,MT-2,30% human serum,-,EC50,<0.199 µM
Clc1ccc2nc(/C=C/c3ccc(OCc4ccccc4)cc3)cc(Cl)c2c1,UG070,luminescence,TZM-bl,-,-,EC50,95.25 µM
Cc1nc2ccc(Br)cc2c(-c2ccc(Cl)cc2)c1C(O[C@H](C)C#N)C(=O)O,-,luciferase / reporter gene,C8166,-,-,EC50,<20 µM
CN1c2ccccc2C2C1C=C(C#N)C(=O)N2c1ccc(C#N)cc1,LAI,cytopathic effect / MTT,MT-4,-,-,EC50,1–32 µM
Cc1[nH]c(=S)n(Nc2ccccc2)c1C,NL4-3,cytopathic effect / MTT,MT-4,-,-,EC50,>181 µM
Cc1cc(S(N)(=O)=O)ccc1NC(=O)COc1ccc(Cl)cc1C(=O)c1cc(F)cc(C(F)(F)F)c1,HXB2,β-galactosidase,HELA MAGI,25% human serum,-,EC50,7.7 µM
Cc1cc(-c2ccc[n+]([O-])c2)ccc1OCCc1cnc2c(c1)C(=O)N(C)c1cccnc1N2C1CC1,IIIB,p24,C8166,-,-,EC50,<0.01 µM
CCCOC1(C(F)(F)F)OC(=O)Nc2ccc(Cl)cc21,-,-,-,-,-,EC50,<0.00581 µM
Cc1cc(C)cc(Nn2c(-c3ccccc3)c(C)[nH]c2=S)c1,SO561945 (RT K103N Y181C),cytopathic effect / MTT,MT-4,-,RT-K103N Y181C,EC50,>194 µM
CC1(C)CC=C(c2cn(-c3nccc(C(=O)NC4CCC(N5CC6CCC(C5)O6)CC4)n3)c3ccc(F)c([C@H](OC(C)(C)C)C(=O)O)c23)CC1,NL4-3,luminescence,MT-4,-,-,EC50,0.0036 µM
C=CCCN(C(=O)[C@H](Cc1cc(F)cc(F)c1)NS(=O)(=O)NC(=O)N[C@@H](Cc1cc(F)cc(F)c1)C(=O)N(CC=C)c1ccc(OC)cc1)c1ccc(OC)cc1,NL4-3,luciferase,MT-2,-,-,EC50,0.38 µM
CCN1c2ncc(CCOc3ccc(-c4cccc[n+]4[O-])cc3C)cc2C(=O)N(C)c2cccnc21,-,p24,C8166,-,RT-K103N Y181C,EC50,<0.01 µM
O=C1Nc2ccc(F)c(F)c2[C@@](C#CC2CC2)(C(F)(F)F)N1,-,-,-,-,RT-K103N Y181C,EC90,~0.015 µM
CC(C)C1=C2[C@H]3CC[C@@H]4[C@@]5(C)CC[C@H](OC(=O)CC(C)(C)C(=O)O)C(C)(C)[C@@H]5CC[C@@]4(C)[C@]3(C)CC[C@@]2(NC(=O)c2cncn2C)CC1=O,IIIB,RT activity,MT-2,30% human serum,-,EC50,<0.199 µM
COc1ccc(-n2ccnc2[C@H](Cc2ccccc2)NC(=O)CN2c3ccccc3N(CC(=O)N[C@@H](Cc3ccccc3)c3nccn3-c3ccc(OC)cc3)S2(=O)=O)cc1,NL4-3,luciferase,MT-2,-,-,EC50,6.7 µM
Cc1[nH]c(=S)n(Nc2ccccc2)c1-c1ccccc1,IIIB,cytopathic effect / MTT,MT-4,-,-,EC50,>191 µM
Cn1cnc(CN2CCn3c(nc(C(=O)NCc4ccc(F)cc4)c(O)c3=O)C2(C)C)n1,-,p24,MT-4,-,-,EC50,<1 µM
COc1ccnc2[nH]cc(C(=O)C(=O)N3C4CCC3CN(C(=O)c3ccccc3)C4)c12,SF162,luciferase,TZM-bl,-,-,EC90,32 µM
O=C1Nc2ccc(F)c(F)c2C(C#Cc2ccccn2)(C(F)(F)F)O1,-,-,-,-,RT-K103N,EC90,0.193 µM
CC(C)=CCOc1cc(NC(=S)c2ccsc2C)ccc1Cl,4XAZT+L100I,cytopathic effect / XTT,CEM + CEM-SS,-,-,EC50,0.01 µM
Cc1cccc(Nn2cnc(C)c2C)c1,IIIB,cytopathic effect / MTT,MT-4,-,-,EC50,>312 µM
CN(C(=O)[C@H](Cc1cc(F)cc(F)c1)NC(=O)NS(=O)(=O)N[C@@H](Cc1cc(F)cc(F)c1)C(=O)N(C)c1ccc(C(F)F)nc1)c1ccc(C(F)F)nc1,NL4-3,luciferase,MT-2,-,-,EC50,0.39 µM
Cc1ccccc1C(C)c1c(C)c(=O)[nH]c(=O)n1COCc1ccccc1,IIIB,MTT,MT-4,-,-,EC50,23.21 µM
Cc1ccnc2c1NC(=O)c1cccnc1N2C1CC1,SF33,p24 / ELISA,PBMC,-,-,EC50,0.69 µM
CC(C)C1=C2C3CCC4[C@@]5(C)CC[C@H](OC(=O)CC(C)(C)C(=O)O)C(C)(C)C5CC[C@@]4(C)[C@]3(C)CC[C@@]2(NC(=O)C2CCOCC2)CC1=O,IIIB,RT activity,MT-2,30% human serum,-,EC50,<0.199 µM
CCc1ccc(-c2c(C(OC3(C)CCCCC3)C(=O)O)c(C)nc3ccc(Cl)cc23)cc1,-,luciferase / reporter gene,C8166,-,-,EC50,<20 µM